This passage reports Kd and Response results from US20230374114A1, “Coronavirus antibodies and methods of use thereof” (Dana-Farber, published 2023).

What is called Kd is a measure of binding affinity in units of concentration. Read a low Kd as higher affinity.

Assay [1] concerns the target B.1.351 Spike (SARS-CoV-2). Put plainly: biosensor, scFv-Fc loaded at 1 ug/ml, spike in solution at 48.5 nM.
For assay [2], the target named is B.1.1.7 Spike (SARS-CoV-2). The experiment in a line: biosensor, scFv-Fc loaded at 1 ug/ml, spike in solution at 48.4 nM.
Assay [3] addresses P.1 Spike (SARS-CoV-2). Put plainly: biosensor, scFv-Fc loaded at 1 ug/ml, spike in solution at 48.3 nM.
Assay [4] has as its target B.1.351 Spike (SARS-CoV2). Put plainly: biosensor kinetics; scFv-Fc loaded at 1 ug/ml, spike as analyte at 48.5 nM.
For assay [5], the target named is B.1.1.7 Spike (SARS-CoV2).
The target in assay [6] is P.1 Spike (SARS-CoV2).

B1: Ab 26 (scFv, V domains shown)
VH: QVQLVQSGGGLVQPGRSLRLSCAASGFTFDDYAMHWVRQVPGKGLEWVSGIDWNSGVIGYADSVKGRFTISRDNAKNSLYLQMNSLRAEDTALYYCAKDAYSYGFLGAFDIWGQGTMVTVSS
VL: LPVLTQPPSVSVAPGQTASITCGGDNIRTKGVHWYQQKPGQAPLLVIYYASDRPSGIPERFSGSSSGNTATLTISRVEAGDEADYYCQVWDSSSDLVVFGGGTTLTVL
notes: also called Ab 26 scFv-Fc
Regarding B1, the figures for the Kd in assay [1], in assay [2] and in assay [3] were 1.78 pM, 1.37 pM and 10.3 pM, respectively. In addition, the Response in assay [1] stood at 0.214; in assay [2], 0.336; in assay [3], 0.188.

B2: S1-RBD-R3-T1-E2 (Ab7) (scFv, V domains shown)
VH: QVQLVQSGGGLVQPGRSLRLSCAASGFTFDDYAMHWVRQVPGKGLEWVSGIDWNSGVIGYADSVKGRFTISRDNAKNSLYLQMNSLRAEDTALYYCAKDAYSYGFLGAFDIWGQGTMVTVSS
VL: QPGLTQPPSVSVAPGQTARISCGGNNIGSKSVHWYQQKPGRAPVLVVYEDRGRPSGIPERFSGSNSGNTATLTVSRVEAGDEADYYCQVWDGDSDHYVFATGTKVSIL
notes: also called Ab 7 scFv-Fc
B2: the Kd in assay [1] came out at 1.67 pM; in assay [2] it was 1.1 pM; in assay [3], 10.9 pM. For the same molecule, the Response stood at 0.233 in assay [1], 0.356 in assay [2] and 0.242 in assay [3].

B3: Ab 25 (scFv, V domains shown)
VH: QVQLVQSGGGLVQPGGSLRLSCAASGFTFSSYWMSWVRQAPGKGLEWVANIKQDGSEKYYVDSVKGRFTISRDNAKNSLYLQMNSLRAEDTAVYYCARGFYYYGAFDIWGQGTTVTVSS
VL: NFMLTQPHSVSESPGKTVTISCTGSSGSIASNYVQWYQQRPGSAPTTVIYEDNQRPSGVPDRFSGSIGSSSNSASLTISGLKTEDEADYYCQSYDSSNHWVFGGGTKLTVL
notes: also called Ab 25 scFv-Fc
As for B3, the dissociation constant (Kd) in assay [1] was found to be 1.13 pM; in assay [2], 427 pM; in assay [3] it was 8.72 pM. The Response was found to be 0.0577 in assay [1], 0.0668 in assay [2] and 0.0396 in assay [3].

B4: Ab 28 (scFv, V domains shown)
VH: QVTLKESGPGLVNPSETLSLTCTVSGASISNSFWSWIRQSPGKGLEWIGYTSYSGNSIYNPSLKSRLTMSIDTSKNQLSLNLRSLTAADTAVYYCARREWIKGHFDYWGQGTLVTVSS
VL: NFMLTQPHSVSESPGKTVTISCTGSGGSIASNYVQWYQQRPGSAPTTVIYEDNQRPSGVPDRFSGSIDSSSNSASLTISGLKTEDEADYYCQSYDSSNPVVFGGGTKLTVL
notes: also called Ab 28 scFv-Fc
In the case of B4, the Kd in assay [1] was found to be 6.38 pM; in assay [2], 1.49 pM; in assay [3] it was 8.91 pM. In addition, the Response in assay [1] was 0.12; in assay [2] it was 0.206; in assay [3], 0.102.

B5: Ab 27 (scFv, V domains shown)
VH: QVQLVQSGTEVKKPGASVKVSCKASGYSFTGSHLHWVRQAPGQGLEWMGWINPDSGVINYAQKFQGRVTLTRDTSISTAYMELSGLRSDDTAVYYCARDKAIGYVWALDYWGQGTLVTVSS
VL: QSALTQPPSVSGSPGQSVTISCTGTSSDVGTYNRVSWYQQPPGKAPKLMIYEVSNRPSGVSNRFSGSKSGNTASLTISGLQAEDEADYYCSSYTRTFTYVFGTGTKVTVL
notes: also called Ab 27 scFv-Fc
Take B5: the Kd in assay [1] turned out to be 1.25 pM; in assay [2], 1.57 pM; in assay [3] it was 8.9 pM. Moreover, the results for the Response in assay [1], in assay [2] and in assay [3] were 0.0974, 0.281 and 0.0795, respectively.

B6: S1-RBD-R3-E1-E8 Ab (Ab 37) (scFv, V domains shown)
VH: QVQLVQSGAEVKKPGASVKVSCKASGYTFTSYGISWVRQAPGQGLEWMGWISTYNGNTNYAQKLQGRVTMTTDTSTSTAYMEVRSLRSDDTAVYYCARDVFGHFDYWGQGTLVTVSS
VL: NFMLTQPHSVSESPGKTVLISCTRSSGNIATNYVQWYQQRPGSAPTTVIYEDNQRPSGVPDRFSGSIDSSSNSASLTISGLKTEDEADYYCKSYDDGNHVFGGGTKLTVL
notes: also called Ab 37 scFv-Fc
B6: the dissociation constant (Kd) in assay [4] amounted to 6.69 pM; in assay [5] it was 1.28 pM; in assay [6] it was 8.99 pM. Further, the Response was determined as 0.118 in assay [4], 0.148 in assay [5] and 0.108 in assay [6].

B7: RBD-R3-T1-H3 (Ab_2) (scFv, V domains shown)
VH: EVQLVQSGAEVKKPGSSVKVSCKTSGYTFTTSGISWVRQAPGQGLEWMGWISAYNGNTNYAQKLQGRVTMTTDTSTSTAYMELRSLRSDDTAVYYCARDFHLYYGMDVWGKGTLVTVSS
VL: QSALTQPPSASGSPGQSVTISCTGTSSDVGAYNYVSWYQQHPGKAPKLLIYDVTKRPPGVPDRFSGSKSGNTASLTVSGLQAEDEADYYCAVWDDGLNGRVVFGGGTKLTVL
notes: also called Ab 2 scFv-Fc
For B7, the Kd was determined as 503 pM in assay [1], 657 pM in assay [2] and 9.13 pM in assay [3]. Further, the Response in assay [1] came to 0.0439; in assay [2], 0.161; in assay [3], 0.0281.

B8: Ab 38 (scFv, V domains shown)
VH: QVTLKESGPTLVKPTQTLTLTCTFSGFSLTTSGVSVGWIRQPPGKALEWLALIHWDDDKRYSPSLRSRLTITRDTSKNQVVLTVTDMDPADTGTYYCASFIMTVYAEYFEDWGQGTLVTVSS
VL: EIVLTQSPATLSVSPGERATLSCRASQSVSSNLAWYQQKPGQAPRLLMYDVSTRATGIPARFSGSGSGTEFSLTISSLQSEDFAVYYCQQRGAWPLTFGGGTKVEIK
notes: also called Ab 38 scFv-Fc
Take B8: the Kd in assay [4] came out at 7.62 pM; in assay [5], 1.47 pM; in assay [6], 7.23 pM. In addition, the Response was determined as 0.234 in assay [4], 0.267 in assay [5] and 0.228 in assay [6].

B9: Ab 22 (scFv, V domains shown)
VH: QVQLVQSGGGVVQPGRSLRLSCAASGFTFSHYDMHWVRQAPGKGLEWLAVIGYDGTNLYYADSVKGRFTISRDKSKNTLYLQINSLRAEDTAVYYCARAANYYDSSGYGRADAFDIWGQGTTVTVSS
VL: NFMLTQPHSVSESPGKTVIISCTRTTGSIAGNYVQWYRQRPGSAPTTVIYDDNQRPAGVPDRFSGSVDSSSNSASLTITGLKTEDEADYYCQSYDSGNRGVFGTGTKLTVL
notes: also called Ab 22 scFv-Fc
Turning to B9, the dissociation constant (Kd) in assay [1] came to 3.18 pM; in assay [2] it was 9.13 pM; in assay [3], 8.85 pM. Further, the Response is 0.183 in assay [1], 0.148 in assay [2] and 0.136 in assay [3].

B10: S1-RBD-R3-T1-G1 Ab (Ab_35) (scFv, V domains shown)
VH: EVQLVQSGAEVKKPGESLRISCKASGYSFTSNWIGWVRQMPGKGLEWMGSIFPGDSDTKYSPSFQGQVTISADRSISTAYLQWSGLKASDTAMYYCARESYNAYGSWGQGTLVTVSS
VL: QPGLTQPPSASGTPGQRVTISCSGSSSNIGSNPVNWYQQLPGTAPKLLIYSNNQRPSGVPDRFSGSKSGTSASLAISGLRSEDEADYYCAAWDDSLSGVVFGGGTKLTVL
notes: also called Ab 35 scFv-Fc
For the molecule B10, the Kd in assay [4] was found to be 9.16 pM; in assay [5], 7.96 pM. Further, the values for the Response in assay [4], in assay [5] and in assay [6] were 0.165, 0.19 and 0.155, respectively.

B11: S1-R3-T1-A12 (Ab_5) (scFv, V domains shown)
VH: QVQLVQSGGGVVQPGRSLRLSCAASGFTFTTYGMHWVRQAPGKGLEWVAVISYDGSIKNYADFVEGRFTISRDNSKNTLYLQMNSLRPEDTGVYYCARVGDSSSYYGIDAWGQGTLVTVSS
VL: QPVLTQPPSASGTPGQRVTISCSGSSSNIGSNSVNWYQQLPGTAPKLLIYSNNQRPSGVPDRFSDSKSGTSASLAISGLQSEDEADYFCAAWDDSLTGYVFGTGTKVTVL
notes: also called Ab 5 scFv-Fc
For B11, the results for the dissociation constant Kd in assay [1], in assay [2] and in assay [3] were 18.1 pM, 326 pM and 7.71 pM, respectively. For the same molecule, the Response in assay [1] was determined as 0.125; in assay [2] it was 0.185; in assay [3], 0.115.

B12: RBD-R3-E1-F5 Ab (Ab_36) (scFv, V domains shown)
VH: QVQLQQSGPGLVKPSQTLSLTCAIFGDSVTSNSAAWNWIRQSPSRGLEWLGRTYYSSKWYNDYAVSVKSRVTINADTSKNQLSLQLNSVTPEDTAVYYCARGWLRLSFDPWGQGTLVTVSS
VL: NFMLTQPHSVSESPGKTVTISCTGSSGSIASNYVQWLQQRLGSAPTTVIYEDNQRPSGVPDRFSGSIDSSSNSASLTISGLKTEDEADYYCQSYDPNNHGVVFGGGTKLTVL
notes: also called Ab 36 scFv-Fc
In the case of B12, the Kd amounted to 8.07 pM in assay [4], 5.16 pM in assay [5] and 8.89 pM in assay [6]. Also, the Response in assay [4] was found to be 0.134; in assay [5], 0.146; in assay [6], 0.113.

B13: Ab 23 (scFv, V domains shown)
VH: EVQLVQSGAEVKKPGSSVKVSCRSSGGTFSTYGITWVRQAPGQGLEWMGRIIPSLGIPNYAQKFQGRVTITADTSVSTAWMELSSLESDDTAIYYCARENIDLATNDFWGQGTLVTVSS
VL: QSALTQPPSASGSPGQSVTISCTGTSRDIGAYGYVSWYQQVPGKAPKLIIYEVRNRPSGVSSRFSGSKSGNTASLTISGLQAEDEADYYCSSYTSSSTLDVVFGGGTKLTVL
notes: also called Ab 23 scFv-Fc
In the case of B13, the figures for the Kd in assay [1], in assay [2] and in assay [3] were 7.58 pM, 9.11 pM and 8.79 pM, respectively. In addition, the Response in assay [1] turned out to be 0.189; in assay [2], 0.135; in assay [3], 0.123.

B14: S1-R3-T1-C4 (Ab_8) (scFv, V domains shown)
VH: QVQLVQSGAEVKKPGSSVKVSCKASGGTFSSYAISWLRQAPGQGLEWMGWINPNSGGTNYAQKFQGRVTMTRDTSISTAYMELSRLRSDDTAVYYCARGSGGYYLGWGQGTLVTVSS
VL: QPGLTQPPSVSKGLRQTATLTCTGNSNNVGNQGAAWLQQHQGHPPKLLSYMNNNRPPGISERFSASRSGNTASLTITGLQPEDEADYYCSAWDSSLSRWVFGGGTKLSVL
notes: also called Ab 8 scFv-Fc
For the molecule B14, the Kd in assay [1] was found to be 1090 pM; in assay [2] it was 2.29 pM; in assay [3] it was 10.6 pM. Besides, the Response in assay [1] worked out at 0.0872; in assay [2], 0.202; in assay [3] it was 0.0784.
